SMILES strings stand for the structures. ± gives the standard deviation of the averaged measurements. The entries are a selection whose mix differs from that of the whole data set.

In the first experiment the test system is E. coli TESEC Mtb Alr. The experiment can be described thus: growth (OD600 after 10 h); higher = more growth (less inhibition). The conditions noted are these: arabinose 100 nM; compound 0.1 mM; raw OD600 reference: median of DMSO wells 0.413, cell-free background 0.052. The procedure: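 TESEC Mtb Alr E. coli (ΔaraC ΔtolC ΔentC Δalr ΔdadX, arabinose-inducible Mtb Alr) or the Alr+ wild-type control strain, grown in defined M9-fructose medium without D-alanine in 96-well plates with Prestwick library compounds at 0.1 mM and 1% DMSO. Low Alr induction is 0.1 µM arabinose and high induction is 10 mM arabinose.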
In turn, `COc1cc(Br)c(C[N+]2(CCOCCC3CCC4CC3C4(C)C)CCOCC2)cc1OC` (configuration not stated) [Pinaverium bromide] displayed a growth of 0.0525 ± 0.0023.

The experiment is the same for the next values; noted with them: arabinose 10000000 nM; compound 0.1 mM; raw OD600 reference: median of DMSO wells […], cell-free background 0.052.
For `COc1cc(Br)c(C[N+]2(CCOCCC3CCC4CC3C4(C)C)CCOCC2)cc1OC` (configuration not stated) [Pinaverium bromide], the growth worked out at 0.0511 ± 0.0003.

Source of the values: the supplement of paper PMC9262897, “Low-cost anti-mycobacterial drug discovery using engineered E. coli” (Nature Communications, 2022).
